Results from PMC9104152, “Phosphoproteomics Unravel HBV Triggered Rewiring of Host Phosphosignaling Events” (International Journal of Molecular Sciences, 2022).

Tested on: HepG2-NTCP cells
Assay: TMT-based phosphoproteome profiling of HBV-infected vs mock HepG2-NTCP (HBV/mock ratio)
Design: species or system human
Details: phosphosite abundance ratio of host protein, HBV-infected vs mock HepG2-NTCP, 7dpi, sheet Up-regulated

Molecule	HBV/mock
Q9NVU0 1xPhospho [S503(100)] (protein, UniProt Q9NVU0 1-708, looked up, phospho S503) DNA-directed RNA polymerase …: MANEEDDPVVQEIDVYLAKSLAEKLYLFQYPVRPASMTYDDIPHLSAKIKPKQQKVELEMAIDTLNPNYCRSKGEQIALNVDGACADETSTYSSKLMDKQTFCSSQTTSNTSRYAAALYRQGELHLTPLHGILQLRPSFSYLDKADAKHREREAANEAGDSSQDEAEDDVKQITVRFSRPESEQARQRRVQSYEFLQKKHAEEPWVHLHYYGLRDSRSEHERQYLLCPGSSGVENTELVKSPSEYLMMLMPPSQEEEKDKPVAPSNVLSMAQLRTLPLADQIKILMKNVKVMPFANLMSLLGPSIDSVAVLRGIQKVAMLVQGNWVVKSDILYPKDSSSPHSGVPAEVLCRGRDFVMWKFTQSRWVVRKEVATVTKLCAEDVKDFLEHMAVVRINKGWEFILPYDGEFIKKHPDVVQRQHMLWTGIQAKLEKVYNLVKETMPKKPDAQSGPAGLVCGDQRIQVAKTKAQQNHALLERELQRRKEQLRVPAVPPGVRIKEEPVSEEGEEDEEQEAEEEPMDTSPSGLHSKLANGLPLGRAAGTDSFNGHPPQGCASTPVARELKAFVEATFQRQFVLTLSELKRLFNLHLASLPPGHTLFSGISDRMLQDTVLAAGCKQILVPFPPQTAASPDEQKVFALWESGDMSDQHRQVLLEIFSKNYRVRRNMIQSRLTQECGEDLSKQEVDKVLKDCCVSYGGMWYLKGTVQS	1.444
O43741 1xPhospho [S108(100)] (protein, UniProt O43741 1-272, looked up, phosphorylated S108) 5'-AMP-activated protein …: MGNTTSDRVSGERHGAKAARSEGAGGHAPGKEHKIMVGSTDDPSVFSLPDSKLPGDKEFVSWQQDLEDSVKPTQQARPTVIRWSEGGKEVFISGSFNNWSTKIPLIKSHNDFVAILDLPEGEHQYKFFVDGQWVHDPSEPVVTSQLGTINNLIHVKKSDFEVFDALKLDSMESSETSCRDLSSSPPGPYGQEMYAFRSEERFKSPPILPPHLLQVILNKDTNISCDPALLPEPNHVMLNHLYALSIKDSVMVLSATHRYKKKYVTTLLYKPI	1.37
Q14155 1xPhospho [S694(100)] (protein, UniProt Q14155 1-803, looked up, phosphorylated S694) Rho guanine nucleotide …: MNSAEQTVTWLITLGVLESPKKTISDPEGFLQASLKDGVVLCRLLERLLPGTIEKVYPEPRSESECLSNIREFLRGCGASLRLELLFPPSQPPQHLVTTILLSASTFDANDLYQGQNFNKVLSSLVTLNKVTADIGLGSDSVCARPSSHRIKSFDSLGSQSLHTRTSKLFQGQYRSLDMTDNSNNQLVVRAKFNFQQTNEDELSFSKGDVIHVTRVEEGGWWEGTLNGRTGWFPSNYVREVKASEKPVSPKSGTLKSPPKGFDTTAINKSYYNVVLQNILETENEYSKELQTVLSTYLRPLQTSEKLSSANISYLMGNLEEICSFQQMLVQSLEECTKLPEAQQRVGGCFLNLMPQMKTLYLTYCANHPSAVNVLTEHSEELGEFMETKGASSPGILVLTTGLSKPFMRLDKYPTLLKELERHMEDYHTDRQDIQKSMAAFKNLSAQCQEVRKRKELELQILTEAIRNWEGDDIKTLGNVTYMSQVLIQCAGSEEKNERYLLLFPNVLLMLSASPRMSGFIYQGKLPTTGMTITKLEDSENHRNAFEISGSMIERILVSCNNQQDLQEWVEHLQKQTKVTSVGNPTIKPHSVPSHTLPSHPVTPSSKHADSKPAPLTPAYHTLPHPSHHGTPHTTINWGPLEPPKTPKPWSLSCLRPAPPLRPSAALCYKEDLSKSPKTMKKLLPKRKPERKPSDEEFASRKSTAALEEDAQILKVIEAYCTSAKTRQTLNSTWQGTDLMHNHVLADDDQPSLDSLGRRSSLSRLEPSDLSEDSDYDSIWTAHSYRMGSTSRKSCCSYISHQN	1.757
O75400 1xPhospho [S938(100)] (protein, UniProt O75400 1-957, looked up, phosphorylated S938) Pre-mRNA-processing factor 40 …: MRPGTGAERGGLMVSEMESHPPSQGPGDGERRLSGSSLCSGSWVSADGFLRRRPSMGHPGMHYAPMGMHPMGQRANMPPVPHGMMPQMMPPMGGPPMGQMPGMMSSVMPGMMMSHMSQASMQPALPPGVNSMDVAAGTASGAKSMWTEHKSPDGRTYYYNTETKQSTWEKPDDLKTPAEQLLSKCPWKEYKSDSGKPYYYNSQTKESRWAKPKELEDLEGYQNTIVAGSLITKSNLHAMIKAEESSKQEECTTTSTAPVPTTEIPTTMSTMAAAEAAAAVVAAAAAAAAAAAAANANASTSASNTVSGTVPVVPEPEVTSIVATVVDNENTVTISTEEQAQLTSTPAIQDQSVEVSSNTGEETSKQETVADFTPKKEEEESQPAKKTYTWNTKEEAKQAFKELLKEKRVPSNASWEQAMKMIINDPRYSALAKLSEKKQAFNAYKVQTEKEEKEEARSKYKEAKESFQRFLENHEKMTSTTRYKKAEQMFGEMEVWNAISERDRLEIYEDVLFFLSKKEKEQAKQLRKRNWEALKNILDNMANVTYSTTWSEAQQYLMDNPTFAEDEELQNMDKEDALICFEEHIRALEKEEEEEKQKSLLRERRRQRKNRESFQIFLDELHEHGQLHSMSSWMELYPTISSDIRFTNMLGQPGSTALDLFKFYVEDLKARYHDEKKIIKDILKDKGFVVEVNTTFEDFVAIISSTKRSTTLDAGNIKLAFNSLLEKAEAREREREKEEARKMKRKESAFKSMLKQAAPPIELDAVWEDIRERFVKEPAFEDITLESERKRIFKDFMHVLEHECQHHHSKNKKHSKKSKKHHRKRSRSRSGSDSDDDDSHSKKKRQRSESRSASEHSSSAESERSYKKSKKHKKKSKKRRHKSDSPESDAEREKDKKEKDRESEKDRTRQRSESKHKSPKKKTGKDSGNWDTSGSELSEGELEKRRRTLLEQLDDDQ	1.858
O75400 1xPhospho [T373(100)] (protein, UniProt O75400 1-957, looked up, phosphorylated T373) Pre-mRNA-processing factor 40 …: MRPGTGAERGGLMVSEMESHPPSQGPGDGERRLSGSSLCSGSWVSADGFLRRRPSMGHPGMHYAPMGMHPMGQRANMPPVPHGMMPQMMPPMGGPPMGQMPGMMSSVMPGMMMSHMSQASMQPALPPGVNSMDVAAGTASGAKSMWTEHKSPDGRTYYYNTETKQSTWEKPDDLKTPAEQLLSKCPWKEYKSDSGKPYYYNSQTKESRWAKPKELEDLEGYQNTIVAGSLITKSNLHAMIKAEESSKQEECTTTSTAPVPTTEIPTTMSTMAAAEAAAAVVAAAAAAAAAAAAANANASTSASNTVSGTVPVVPEPEVTSIVATVVDNENTVTISTEEQAQLTSTPAIQDQSVEVSSNTGEETSKQETVADFTPKKEEEESQPAKKTYTWNTKEEAKQAFKELLKEKRVPSNASWEQAMKMIINDPRYSALAKLSEKKQAFNAYKVQTEKEEKEEARSKYKEAKESFQRFLENHEKMTSTTRYKKAEQMFGEMEVWNAISERDRLEIYEDVLFFLSKKEKEQAKQLRKRNWEALKNILDNMANVTYSTTWSEAQQYLMDNPTFAEDEELQNMDKEDALICFEEHIRALEKEEEEEKQKSLLRERRRQRKNRESFQIFLDELHEHGQLHSMSSWMELYPTISSDIRFTNMLGQPGSTALDLFKFYVEDLKARYHDEKKIIKDILKDKGFVVEVNTTFEDFVAIISSTKRSTTLDAGNIKLAFNSLLEKAEAREREREKEEARKMKRKESAFKSMLKQAAPPIELDAVWEDIRERFVKEPAFEDITLESERKRIFKDFMHVLEHECQHHHSKNKKHSKKSKKHHRKRSRSRSGSDSDDDDSHSKKKRQRSESRSASEHSSSAESERSYKKSKKHKKKSKKRRHKSDSPESDAEREKDKKEKDRESEKDRTRQRSESKHKSPKKKTGKDSGNWDTSGSELSEGELEKRRRTLLEQLDDDQ	1.334
O75400 2xPhospho [S938(100); T/S] (protein, UniProt O75400 1-957, looked up, diphosphorylated incl. S938) Pre-mRNA-processing factor 40 …: MRPGTGAERGGLMVSEMESHPPSQGPGDGERRLSGSSLCSGSWVSADGFLRRRPSMGHPGMHYAPMGMHPMGQRANMPPVPHGMMPQMMPPMGGPPMGQMPGMMSSVMPGMMMSHMSQASMQPALPPGVNSMDVAAGTASGAKSMWTEHKSPDGRTYYYNTETKQSTWEKPDDLKTPAEQLLSKCPWKEYKSDSGKPYYYNSQTKESRWAKPKELEDLEGYQNTIVAGSLITKSNLHAMIKAEESSKQEECTTTSTAPVPTTEIPTTMSTMAAAEAAAAVVAAAAAAAAAAAAANANASTSASNTVSGTVPVVPEPEVTSIVATVVDNENTVTISTEEQAQLTSTPAIQDQSVEVSSNTGEETSKQETVADFTPKKEEEESQPAKKTYTWNTKEEAKQAFKELLKEKRVPSNASWEQAMKMIINDPRYSALAKLSEKKQAFNAYKVQTEKEEKEEARSKYKEAKESFQRFLENHEKMTSTTRYKKAEQMFGEMEVWNAISERDRLEIYEDVLFFLSKKEKEQAKQLRKRNWEALKNILDNMANVTYSTTWSEAQQYLMDNPTFAEDEELQNMDKEDALICFEEHIRALEKEEEEEKQKSLLRERRRQRKNRESFQIFLDELHEHGQLHSMSSWMELYPTISSDIRFTNMLGQPGSTALDLFKFYVEDLKARYHDEKKIIKDILKDKGFVVEVNTTFEDFVAIISSTKRSTTLDAGNIKLAFNSLLEKAEAREREREKEEARKMKRKESAFKSMLKQAAPPIELDAVWEDIRERFVKEPAFEDITLESERKRIFKDFMHVLEHECQHHHSKNKKHSKKSKKHHRKRSRSRSGSDSDDDDSHSKKKRQRSESRSASEHSSSAESERSYKKSKKHKKKSKKRRHKSDSPESDAEREKDKKEKDRESEKDRTRQRSESKHKSPKKKTGKDSGNWDTSGSELSEGELEKRRRTLLEQLDDDQ	1.485
O60216 1xPhospho [S545(100)] (protein, UniProt O60216 1-631, looked up, phosphorylated S545) Double-strand-break repair …: MFYAHFVLSKRGPLAKIWLAAHWDKKLTKAHVFECNLESSVESIISPKVKMALRTSGHLLLGVVRIYHRKAKYLLADCNEAFIKIKMAFRPGVVDLPEENREAAYNAITLPEEFHDFDQPLPDLDDIDVAQQFSLNQSRVEEITMREEVGNISILQENDFGDFGMDDREIMREGSAFEDDDMLVSTTTSNLLLESEQSTSNLNEKINHLEYEDQYKDDNFGEGNDGGILDDKLISNNDGGIFDDPPALSEAGVMLPEQPAHDDMDEDDNVSMGGPDSPDSVDPVEPMPTMTDQTTLVPNEEEAFALEPIDITVKETKAKRKRKLIVDSVKELDSKTIRAQLSDYSDIVTTLDLAPPTKKLMMWKETGGVEKLFSLPAQPLWNNRLLKLFTRCLTPLVPEDLRKRRKGGEADNLDEFLKEFENPEVPREDQQQQHQQRDVIDEPIIEEPSRLQESVMEASRTNIDESAMPPPPPQGVKRKAGQIDPEPVMPPQQVEQMEIPPVELPPEEPPNICQLIPELELLPEKEKEKEKEKEDDEEEEDEDASGGDQDQEERRWNKRTQQMLHGLQRALAKTGAESISLLELCRNTNRKQAAAKFYSFLVLKKQQAIELTQEEPYSDIIATPGPRFHII	1.372
